# Reference: US20220387615A1, “COMPOSITIONS COMPRISING ENZYME CLEAVABLE LINKER PLATFORMS AND CONJUGATES THEREOF” (Danmarks Tekniske Universitet, priority 2019, published 2022)
# Test system: Amano Lipase from Pseudomonas fluorescens
# Test: Lipase test of linker X8: cleavage and model drug release
# Type: biochemical
# Procedure: Compound X8 was exposed to lipase in phosphate buffered solutions at pH 6 and 7.4. […] The pH 6 and 7.4 tests were conducted to determine if any difference in the rate of intramolecular lactonisation would be observed. Initial tests involved incubation of the linker (1 mM in 2% DMSO/buffer) with 1 mg/mL lipase (>20 U/mL) at room temperature (FIG. 16). Caffeine was included as an internal standard. Aliquots were taken out at different time points and LC-MS and HPLC used for analysis.
structure (smiles),measurement,setting,value
"CCCCCCCC(=O)OCCN(CC(=O)OCC(=O)c1ccc(Br)cc1)C(=O)c1ccccc1 [Example X8, 2-(N-(2-(2-(4-bromophenyl)-2-oxoethoxy)-2-oxoethyl)benzamido)ethyl octanoate]",accumulation of intermediate X9,"FIG. 17, conversion over 114 min",negligible accumulation
same,accumulation of X9,"pH 6, 1 mg/mL lipase, room temperature",major accumulation
same,accumulation of the intermediate X9,"pH 7.4, 1 mg/mL lipase, room temperature",no significant accumulation
